Laboratory results: patent US12583820B2, “Broad spectrum antivirals against coronavirus” (priority 2020, dated 2026)

Target: 3CLpro of SARS-CoV-2 (Severe acute respiratory syndrome coronavirus 2, UniProt P0DTD1)

| Substance | IC50 [nM] |
| --- | --- |
| Sodium (2S)-2-((S)-2-((((4,4-difluorocyclohexyl) methoxy-d2) carbonyl) amino)-4-methylpentanamido)-1-hydroxy-3-(2-oxopyrrolidin-3-yl) propane-1-sulfonate [Compound 11c] | 300 |
| Sodium (2S)-1-hydroxy-2-((S)-4-methyl-2-(((((1s,4S)-4-propylcyclohexyl) methoxy-d2) carbonyl) amino) pentanamido)-3-(2-oxopyrrolidin-3-yl) propane-1-sulfonate [Compound 9c] | 330 |
| ((1s,4S)-4-Propylcyclohexyl) methyl-d2 ((2S)-4-methyl-1-oxo-1-(((2S)-1-oxo-3-(2-oxopyrrolidin-3-yl) propan-2-yl) amino) pentan-2-yl) carbamate [Compound 9b] | 410 |
| Sodium (2S)-1-hydroxy-2-((S)-4-methyl-2-(((((1s,4S)-4-propylcyclohexyl)oxy)carbonyl) amino)pentanamido)-3-((S)-2-oxopyrrolidin-3-yl)propane-1-sulfonate [Compound 3c] | 200 |
